Pooled drug test results. Numbers come from NIAID ChemDB, via PubChem.

All rows: host cell toxicity; cell line: HepG2.117; method: luminescence; measure: CC50

CCn is the concentration with n% toxicity to the cells.

structure	value
CC(=O)Nc1cccc([C@H](C)N2CCn3nc4c(c3C2=O)CN(C(=O)c2ccc(Cl)c(C#N)c2)[C@H](C)C4)c1	>50 µM
C[C@@H]1Cc2nn3c(c2CN1C(=O)c1ccc(Cl)c(C#N)c1)C(=O)N([C@H](C)c1ccc2c(c1)OC(F)(F)O2)CC3	>50 µM
Cc1cc(C)n(-c2nc3c(c(=O)n2-c2ccc(N4CC[C@@H](O)C4)nc2)C[C@@H](C)N(C(=O)c2ccc(Br)c(C(F)(F)F)c2)C3)n1	>0.5 µM
C[C@@H]1Cc2nn3c(c2CN1C(=O)c1ccc(Cl)c(C#N)c1)C(=O)N([C@@H](C)c1cccc(C(F)(F)F)c1)CC3	>50 µM
CC(=O)Nc1cccc([C@@H](C)N2CCn3nc4c(c3C2=O)CN(C(=O)c2ccc(Cl)c(Cl)c2)[C@H](C)C4)c1	23.1 µM
Cc1cc(C)n(-c2nc3c(c(=O)n2-c2ccc(OC4CC(O)C4)cc2)C[C@@H](C)N(C(=O)c2ccc(Br)c(C(F)(F)F)c2)C3)n1	>0.5 µM
C[C@@H]1Cc2nn3c(c2CN1C(=O)c1ccc(Cl)c(C#N)c1)C(=O)N(Cc1ccc2n[nH]nc2c1)CC3	>50 µM
Cc1cc(C)n(-c2nc3c(c(=O)n2-c2ccc(N4CC[C@H](O)C4)nc2)C[C@@H](C)N(C(=O)c2ccc(Br)c(C(F)(F)F)c2)C3)n1	>0.5 µM
C[C@@H]1Cc2nn3c(c2CN1C(=O)c1ccc(Cl)c(Cl)c1)C(=O)N([C@H](C)c1ccc(NS(C)(=O)=O)cc1)CC3	42 µM
O=C(c1ccc(Cl)c(Cl)c1)N1CCc2nn3c(c2C1)-c1noc(-c2ccccc2)c1CCC3	>50 µM
Cc1cc(C)n(-c2nc3c(c(=O)n2-c2ccc(OC[C@H](C)O)cc2)C[C@@H](C)N(C(=O)c2ccc(Br)c(C(F)(F)F)c2)C3)n1	>0.5 µM
C[C@@H]1Cc2nn3c(c2CN1C(=O)c1ccc(Cl)c(C#N)c1)C(=O)N([C@H](C)c1ccc(C(F)(F)F)cc1)CC3	11.1 µM
Cc1cc(C)n(-c2nc3c(c(=O)n2-c2ccc(OC4CC(O)C4)nc2)C[C@@H](C)N(C(=O)c2ccc(Br)c(C(F)(F)F)c2)C3)n1	>0.5 µM
C[C@@H]1Cc2nn3c(c2CN1C(=O)c1ccc(Cl)c(C#N)c1)C(=O)N([C@@H](C)c1ccc(OC(F)(F)F)cc1)CC3	25 µM
C[C@@H]1Cc2nn3c(c2CN1C(=O)c1ccc(Cl)c(C#N)c1)C(=O)N(Cc1ccc(S(F)(F)(F)(F)F)cc1)CC3	14.2 µM

For reference, 2 entries again:

| structure | value |
|---|---|
| C[C@@H]1Cc2nn3c(c2CN1C(=O)c1ccc(Cl)c(C#N)c1)C(=O)N([C@@H](C)c1ccc(OC(F)(F)F)cc1)CC3 | 25 µM |
| C[C@@H]1Cc2nn3c(c2CN1C(=O)c1ccc(Cl)c(Cl)c1)C(=O)N([C@H](C)c1ccc(NS(C)(=O)=O)cc1)CC3 | 42 µM |

Neighbouring rows are from separate reports.